Measured values from several laboratories, pooled; numbers as filed in NIAID ChemDB.

Common to all: enzyme or target tests; species: HIV-1; target: Reverse transcriptase; measure: fold resistance

An empty or dashed field is not shown.

SMILES | mutations | read by | value
Nc1ncnc2c1ncn2CCOCP(=O)(O)OP(=O)(O)OP(=O)(O)O | RT-Q151M | nucleotide incorporation / radiometric | 1.1
O=C1c2cccnc2C(=O)N1CCNC(=S)Nc1ccc(Br)cn1 | RT-Y188L | nucleotide incorporation | 31.6
CCOc1ccc(CSc2nc(Cc3c(Cl)cccc3Cl)c(C)c(=O)[nH]2)cc1 | RT-181I | nucleotide incorporation / radiometric | >200
c1ccc(C2SCc3nc4ccccc4n32)cc1 | RT-Y181I | - | >2
Nc1ccn([C@H]2CC[C@@H](COP(=O)(O)OP(=O)(O)OP(=O)(O)O)O2)c(=O)n1 | RT-K65R | nucleotide incorporation / radiometric | 5.19
Cc1c(Cc2c(Cl)cccc2Cl)nc(S(=O)(=O)Cc2ccc([N+](=O)[O-])cc2)[nH]c1=O | RT-181I | nucleotide incorporation / radiometric | ~1
Cc1cn([C@H]2C=C[C@@H](COP(=O)(O)OP(=O)(O)OP(=O)(O)O)O2)c(=O)[nH]c1=O | RT-E138K | nucleotide incorporation / radiometric | 0.8
COc1ccc(CSc2nc(Cc3c(F)cccc3F)c(C)c(=O)[nH]2)cc1 | RT-181I | nucleotide incorporation / radiometric | >57142
COc1ccc(/C=C/NC(=O)Nc2ccc(Cl)cn2)cc1OC | RT-V106A | nucleotide incorporation | 2.86
Nc1ccn([C@H]2C[C@H](O)[C@@H](COP(=O)(O)OP(=O)(O)OP(=O)(O)O)O2)c(=O)n1 | RT-L74V | nucleotide incorporation / radiometric | 0.42
O=C1c2ccncc2C(=O)N1CCNC(=S)Nc1ccc(Br)cn1 | RT-K103N | nucleotide incorporation | 14.3
Nc1nc(=O)n([C@@H]2CC[C@H](COP(=O)(O)OP(=O)(O)OP(=O)(O)O)O2)cc1F | RT-A62V V75I F77L F116Y Q151M | nucleotide incorporation / radiometric | 1.64
O=c1cnc2ccccc2n1CCNC(=S)Nc1ccc(Br)cn1 | RT-K103N | nucleotide incorporation | 3.1
Cc1c(Cc2c(Cl)cccc2Cl)nc(S(=O)(=O)Cc2ccc(Br)cc2)[nH]c1=O | RT-181I | nucleotide incorporation / radiometric | ~1

Repeating the final 2 entries:

{"SMILES": "O=c1cnc2ccccc2n1CCNC(=S)Nc1ccc(Br)cn1", "mutations": "RT-K103N", "read by": "nucleotide incorporation", "value": "3.1"}
{"SMILES": "Cc1c(Cc2c(Cl)cccc2Cl)nc(S(=O)(=O)Cc2ccc(Br)cc2)[nH]c1=O", "mutations": "RT-181I", "read by": "nucleotide incorporation / radiometric", "value": "~1"}

Lines come from different laboratories, so protocols vary. Fold resistance has wild type as its base.